From ChEMBL document CHEMBL1268892, “Antidotes to anthrax lethal factor intoxication. Part 1: Discovery of potent lethal factor inhibitors with in vivo efficacy” (Bioorg Med Chem Lett, 2010)
Activity calls are given as the source filed them. No cut-off for these calls is given here.

Columns and labels:
[1] = Selectivity for Bacillus anthracis lethal factor over MMP1
[2] = Selectivity for Bacillus anthracis lethal factor over MMP3
[3] = Selectivity for Bacillus anthracis lethal factor over MMP9
[4] = Selectivity for Bacillus anthracis lethal factor over MMP12
[5] = Selectivity for Bacillus anthracis lethal factor over MMP14
Rattus norvegicus = assay: Inhibition of lethal factor-induced toxicity in Fischer 344 rat assessed as increase in median survival time at 10 mg/kg, iv relative to control

Row | Compound | fold change (FC) [1] | fold change (FC) [2] | fold change (FC) [3] | fold change (FC) [4] | fold change (FC) [5] | inhibition (Rattus norvegicus)
1 | CO[C@H](C[C@H](CCN1CCCC(CO)C1)C(=O)NO)c1ccc(F)cc1 (some centres undefined) | > 500 | > 500 | > 500 | > 500 | > 500 | Active
2 | Cc1cc(N[C@H](CCCCNCc2ccc(F)cc2)C(=O)NO)cc(C)c1F | > 500 | > 500 | > 500 | > 500 | > 500 | –
3 | Cc1cc(CNCCCC[C@@H](Nc2cc(C)c(F)c(C)c2)C(=O)NO)ccc1F | > 500 | > 500 | > 500 | > 500 | > 500 | –
4 | Cc1cc(C(=O)NCCCC[C@@H](Nc2cc(C)c(F)c(C)c2)C(=O)NO)ccc1F | > 500 | > 500 | > 500 | > 500 | > 500 | inactive
5 | Cc1cc(N[C@H](CCCCNCCc2ccc(F)cc2)C(=O)NO)cc(C)c1F | > 500 | > 500 | > 500 | > 500 | > 500 | –
6 | CO[C@H](C[C@H](CCN(C)CCCc1ccc(F)c(C)c1)C(=O)NO)c1ccc(F)cc1 | > 500 | > 500 | > 500 | > 500 | > 500 | Active
7 | Cc1cc(S(=O)(=O)NCCCC[C@@H](Nc2cc(C)c(F)c(C)c2)C(=O)NO)ccc1F | > 500 | > 500 | > 500 | > 500 | > 500 | Active
